From paper PMC12836348, “Alanine Mutagenesis Identifies Specific Amino Acids of Nemertide Alpha‑1 Activity and Its Binding to Target Receptors” (Journal of Natural Products, 2025)

What was measured:
rNaV1.4 = target: T1, rNaV1.4 (Rattus norvegicus, UniProt P15390); test: Two-electrode voltage clamp, Nav1.4 in Xenopus laevis oocytes; assay type: cell-based; conditions: negative impact on affinity
T1 construct: expressed in transfected cells; host or cells: Xenopus laevis oocytes (cRNA injection)

BgNav1 = test: Two-electrode voltage clamp, BgNav1 expressed in Xenopus laevis oocytes; assay type: cell-based, Blattella germanica
hNav1.1 = target: T2, hNav1.1 (Homo sapiens, UniProt P35498); test: Two-electrode voltage clamp, Nav1.1 in Xenopus laevis oocytes; assay type: cell-based; conditions: two-electrode voltage clamp in Xenopus laevis oocytes, Hill fit, n ≥ 3; highest tested concentration 50 μM
T2 construct: expressed in transfected cells; host or cells: Xenopus laevis oocytes (cRNA injection)

| Compound | fold increase in EC50 on Nav1.4 relative to alpha-1 (rNaV1.4) | fold increase in EC50 on BgNav1 relative to alpha-1 (times lower activity) (BgNav1) | EC50 Nav1.1 (hNav1.1) |
| --- | --- | --- | --- |
| CC[C@H](C)[C@@H]1NC(=O)[C@@H](NC(=O)CN)CSSC[C@@H]2NC(=O)[C@@H]3CSSC[C@@H](C(=O)N[C@@H](CC(N)=O)C(=O)N4C[C@H](O)C[C@H]4C(=O)N4C[C@H](O)C[C@H]4C(=O)N[C@@H](CC(N)=O)C(=O)N[C@@H](CCC(N)=O)C(=O)O)NC(=O)[C@H](CCCCN)NC(=O)[C@H](Cc4ccccc4)NC(=O)[C@H](CC(N)=O)NC(=O)[C@H](Cc4c[nH]c5ccccc45)NC(=O)CNC(=O)[C@H](CSSC[C@H](NC(=O)[C@H](C)NC(=O)[C@H](CO)NC(=O)CNC(=O)[C@H]([C@@H](C)O)NC(=O)[C@H](C)NC1=O)C(=O)N[C@@H]([C@@H](C)O)C(=O)N[C@@H](CC(C)C)C(=O)N[C@@H](CO)C(=O)N[C@@H](CCCCN)C(=O)NCC(=O)N3)NC(=O)[C@H](CC(N)=O)NC(=O)[C@H](CCCCN)NC(=O)[C@H]([C@@H](C)O)NC2=O [Peptide F8A] | 3.8- to 30 fold | – | – |
| CC[C@H](C)[C@@H]1NC(=O)[C@@H](NC(=O)CN)CSSC[C@@H]2NC(=O)[C@@H]3CSSC[C@@H](C(=O)N[C@@H](CC(N)=O)C(=O)N4C[C@H](O)C[C@H]4C(=O)N4C[C@H](O)C[C@H]4C(=O)N[C@@H](CC(N)=O)C(=O)N[C@@H](CCC(N)=O)C(=O)O)NC(=O)[C@H](CCCCN)NC(=O)[C@H](Cc4ccccc4)NC(=O)[C@H](CC(N)=O)NC(=O)[C@H](Cc4c[nH]c5ccccc45)NC(=O)CNC(=O)[C@H](CSSC[C@H](NC(=O)[C@H](Cc4ccccc4)NC(=O)[C@H](CO)NC(=O)CNC(=O)[C@H]([C@@H](C)O)NC(=O)[C@H](C)NC1=O)C(=O)N[C@@H]([C@@H](C)O)C(=O)N[C@@H](CC(C)C)C(=O)N[C@@H](CO)C(=O)N[C@@H](C)C(=O)NCC(=O)N3)NC(=O)[C@H](CC(N)=O)NC(=O)[C@H](CCCCN)NC(=O)[C@H]([C@@H](C)O)NC2=O [Peptide K13A] | 3.8- to 30 fold | – | – |
| CC[C@H](C)[C@@H]1NC(=O)[C@@H](NC(=O)CN)CSSC[C@@H]2NC(=O)[C@@H]3CSSC[C@@H](C(=O)N[C@@H](CC(N)=O)C(=O)N4C[C@H](O)C[C@H]4C(=O)N4C[C@H](O)C[C@H]4C(=O)N[C@@H](CC(N)=O)C(=O)N[C@@H](CCC(N)=O)C(=O)O)NC(=O)[C@H](C)NC(=O)[C@H](Cc4ccccc4)NC(=O)[C@H](CC(N)=O)NC(=O)[C@H](Cc4c[nH]c5ccccc45)NC(=O)CNC(=O)[C@H](CSSC[C@H](NC(=O)[C@H](Cc4ccccc4)NC(=O)[C@H](CO)NC(=O)CNC(=O)[C@H]([C@@H](C)O)NC(=O)[C@H](C)NC1=O)C(=O)N[C@@H]([C@@H](C)O)C(=O)N[C@@H](CC(C)C)C(=O)N[C@@H](CO)C(=O)N[C@@H](CCCCN)C(=O)NCC(=O)N3)NC(=O)[C@H](CC(N)=O)NC(=O)[C@H](CCCCN)NC(=O)[C@H]([C@@H](C)O)NC2=O [Peptide K25A] | 3.8- to 30 fold | 44- to 195 fold | – |
| CC[C@H](C)[C@@H]1NC(=O)[C@@H](NC(=O)CN)CSSC[C@@H]2NC(=O)[C@@H]3CSSC[C@@H](C(=O)N[C@@H](CC(N)=O)C(=O)N4C[C@H](O)C[C@H]4C(=O)N4C[C@H](O)C[C@H]4C(=O)N[C@@H](CC(N)=O)C(=O)N[C@@H](CCC(N)=O)C(=O)O)NC(=O)[C@H](CCCCN)NC(=O)[C@H](Cc4ccccc4)NC(=O)[C@H](CC(N)=O)NC(=O)[C@H](Cc4c[nH]c5ccccc45)NC(=O)CNC(=O)[C@H](CSSC[C@H](NC(=O)[C@H](Cc4ccccc4)NC(=O)[C@H](CO)NC(=O)CNC(=O)[C@H]([C@@H](C)O)NC(=O)[C@H](C)NC1=O)C(=O)N[C@@H]([C@@H](C)O)C(=O)N[C@@H](C)C(=O)N[C@@H](CO)C(=O)N[C@@H](CCCCN)C(=O)NCC(=O)N3)NC(=O)[C@H](CC(N)=O)NC(=O)[C@H](CCCCN)NC(=O)[C@H]([C@@H](C)O)NC2=O [Peptide L11A] | 3.8- to 30 fold | – | – |
| CC[C@H](C)[C@@H]1NC(=O)[C@@H](NC(=O)CN)CSSC[C@@H]2NC(=O)[C@@H]3CSSC[C@@H](C(=O)N[C@@H](CC(N)=O)C(=O)N4C[C@H](O)C[C@H]4C(=O)N4C[C@H](O)C[C@H]4C(=O)N[C@@H](CC(N)=O)C(=O)N[C@@H](CCC(N)=O)C(=O)O)NC(=O)[C@H](CCCCN)NC(=O)[C@H](Cc4ccccc4)NC(=O)[C@H](CC(N)=O)NC(=O)[C@H](Cc4c[nH]c5ccccc45)NC(=O)CNC(=O)[C@H](CSSC[C@H](NC(=O)[C@H](Cc4ccccc4)NC(=O)[C@H](CO)NC(=O)CNC(=O)[C@H]([C@@H](C)O)NC(=O)[C@H](C)NC1=O)C(=O)N[C@@H]([C@@H](C)O)C(=O)N[C@@H](CC(C)C)C(=O)N[C@@H](CO)C(=O)N[C@@H](CCCCN)C(=O)NCC(=O)N3)NC(=O)[C@H](C)NC(=O)[C@H](CCCCN)NC(=O)[C@H]([C@@H](C)O)NC2=O [Peptide N19A] | – | – | no activity at all |
| CC[C@H](C)[C@@H]1NC(=O)[C@@H](NC(=O)CN)CSSC[C@@H]2NC(=O)[C@@H]3CSSC[C@@H](C(=O)N[C@@H](CC(N)=O)C(=O)N4C[C@H](O)C[C@H]4C(=O)N4C[C@H](O)C[C@H]4C(=O)N[C@@H](CC(N)=O)C(=O)N[C@@H](CCC(N)=O)C(=O)O)NC(=O)[C@H](CCCCN)NC(=O)[C@H](Cc4ccccc4)NC(=O)[C@H](CC(N)=O)NC(=O)[C@H](Cc4c[nH]c5ccccc45)NC(=O)CNC(=O)[C@H](CSSC[C@H](NC(=O)[C@H](Cc4ccccc4)NC(=O)[C@H](CO)NC(=O)CNC(=O)[C@H]([C@@H](C)O)NC(=O)[C@H](C)NC1=O)C(=O)N[C@@H]([C@@H](C)O)C(=O)N[C@@H](CC(C)C)C(=O)N[C@@H](CO)C(=O)N[C@@H](CCCCN)C(=O)NCC(=O)N3)NC(=O)[C@H](CC(N)=O)NC(=O)[C@H](CCCCN)NC(=O)[C@H](C)NC2=O [Peptide T17A] | – | 44- to 195 fold | – |
| CC[C@H](C)[C@@H]1NC(=O)[C@@H](NC(=O)CN)CSSC[C@@H]2NC(=O)[C@@H]3CSSC[C@@H](C(=O)N[C@@H](CC(N)=O)C(=O)N4C[C@H](O)C[C@H]4C(=O)N4C[C@H](O)C[C@H]4C(=O)N[C@@H](CC(N)=O)C(=O)N[C@@H](CCC(N)=O)C(=O)O)NC(=O)[C@H](CCCCN)NC(=O)[C@H](Cc4ccccc4)NC(=O)[C@H](CC(N)=O)NC(=O)[C@H](C)NC(=O)CNC(=O)[C@H](CSSC[C@H](NC(=O)[C@H](Cc4ccccc4)NC(=O)[C@H](CO)NC(=O)CNC(=O)[C@H]([C@@H](C)O)NC(=O)[C@H](C)NC1=O)C(=O)N[C@@H]([C@@H](C)O)C(=O)N[C@@H](CC(C)C)C(=O)N[C@@H](CO)C(=O)N[C@@H](CCCCN)C(=O)NCC(=O)N3)NC(=O)[C@H](CC(N)=O)NC(=O)[C@H](CCCCN)NC(=O)[C@H]([C@@H](C)O)NC2=O [Peptide W22A] | – | 44- to 195 fold | very low activity |
